Results of single-concentration screens

Measurements from “University of Dundee, Small-Polar-MMV Screening Library” (2021), ChEMBL document CHEMBL3988442.

Mtb glucose medium: 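Growth of Mycobacterium tuberculosis over 3 days (7H9 medium with glucose and tyloxapol); the read-out is not stated. Concentration: 500 µM. The record gives no direction; compounds that gave an IC50 in retests scored well above the rest, so higher reads as more growth inhibition. About 18,000 compounds were tested under these conditions; 7.9% (about 1,400) showed 50% or more at least once.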
Mtb cholesterol medium: 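Whole-cell growth test on Mycobacterium tuberculosis, read after 4 days in a medium based on cholesterol and the lipid DPPC; the read-out is not stated. Tested at 500 µM. Higher reads as more growth inhibition (inferred: compounds with an IC50 in retests scored well above the rest). About 18,000 compounds were tested under these conditions; 5% (about 900) showed 50% or more at least once.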

Results are given as percent effect. The record does not define 0% and 100%; most values in the screen are far below 50% and negative numbers occur (in some assays of this library far below -100). Many other results are left out here, so strong results are more common than in the screen. A dash means the value is not listed here; it may have been measured.

| compound | Mtb glucose medium | Mtb cholesterol medium |
|---|---|---|
| `CC(C)=CCNC(C(=O)N1CCOCC1)C(C)C` (stereo not given) | 7.662% | - |
| `COC(=O)c1sc(N)nc1C` | -7.442% | - |
| `N#CC1(NC(=O)CCSc2ccccn2)CCC1` | - | 12.44% |
| `CN(C)C(C)(C)CNC(=O)c1c(O)cccc1F` | -0.4109% | -5.453% |
| `OCC1CCN(Cc2ccccc2)CC1` | - | 8.914% |
| `Cc1ccc(C(C)(C)CN(C)C(=O)CCN)cc1` | 53.78% | - |
| `CCNS(=O)(=O)C1CCN(Cc2csnn2)C1` (stereo not given) | - | 6.375% |
| `O=C(NCCc1c[nH]cn1)c1cn2cccnc2n1` | -11.91% | - |
| `CCn1ccnc1CNC(=O)c1ccc2c(c1)CCO2` | -1.81% | - |
| `NC(CCN1CCOCC1)c1ccccc1` (stereo not given) | 1.079% | -1.973% |
| `CCOCCC(=O)N1CCCC(O)(C(F)(F)F)C1` (stereo not given) | - | -6.424% |
| `O=C(CN1CCC(O)CC1)Nc1ccccc1F` | - | 3.904% |
| `CC(CNC(=O)c1ccncc1)c1ccccc1` (stereo not given) | 62.82% | 36.26% |
| `NCc1ccc(NC(=O)c2ccccc2O)cc1` | 53.06% | - |
| `c1cc(-c2nnco2)ccn1` | -1.223% | - |
| `COc1ccc(NC(=O)NC2CCN(C)CC2)cc1` | -2.561% | - |
| `NC1CCCN(c2ccc(C(F)(F)F)cn2)C1` (stereo not given) | 25.77% | 0.5564% |
| `CCC(SC)C(=O)NCc1nnc(C)n1C1CC1` (stereo not given) | - | -3.661% |
| `CCNC(=O)Nc1cc(OC)cc(OC)c1` | 45.63% | 37.01% |
| `NC1CCCOc2ccc(F)cc21` (stereo not given) | 15.91% | - |
| `CC(C)C[C@H](N)C(=O)NCCN(C)C` | - | -12.97% |
| `COC(=O)N1CCCC(C(=O)NCc2c[nH]nc2C)C1` (stereo not given) | 14.07% | - |
| `Cn1cc(S(=O)(=O)NCC2(N)CCCCC2)cn1` | -0.8875% | - |
| `Cc1cnc(C)c(NC(C)Cn2cncn2)n1` (stereo not given) | -4.228% | - |
| `O=S(=O)(CC1CCOC1)N1CCN(CCO)CC1` (stereo not given) | - | -13.33% |
| `CCN1C(=O)CN(C(=O)CC(C)C)CC12CCOCC2` | -1.411% | - |
| `NS(=O)(=O)CC1CCCN1` (stereo not given) | - | -0.3575% |
| `CCS(=O)(=O)c1ccc(S(=O)(=O)N2CC[C@H](N)C2)cc1` | 12.1% | 14.82% |
| `CCN(CC)C(=O)c1cc(O)nc2c(C)cccc12` | 0.8825% | - |
| `Cc1cnc(C(=O)N=c2sccn2C)cn1` | - | -1.867% |
| `N#CCCN1CCCN(c2ccc(C#N)cc2)CC1` | 59.39% | - |
| `Cc1ccc(CNC(CN2CCOCC2)C(C)C)nc1` (stereo not given) | - | 8.155% |
| `CCn1ccc(CN2CCOCS2(=O)=O)n1` | - | -13.61% |
| `NC(=O)COc1cc(Cl)cc(Cl)c1` | 50.72% | - |
| `O=C(Cn1cccn1)Nc1ccccc1Br` | 2.779% | - |
| `Cn1ccc(NC(=O)COc2ccccc2)n1` | 43.86% | 9.217% |
| `O=C(CSc1cnn[nH]1)N1CCc2ccccc2C1` | 49.95% | - |
| `Cc1nnnn1CCC(=O)NCc1csc(C(C)C)n1` | 18.2% | - |
| `Cc1ccsc1CNC(=O)N1CCOCC1` | 25.79% | - |
| `CCC(=O)NC1CN(C(=O)OC(C)(C)C)C1` | - | 8.151% |